For the series, the system named is pcGAS full-length pre-cleaved by SVV 3C (Sus scrofa (porcine)). Description: EMSA. Conditions: pre-incubated with WT SVV 3C, 3C:pcGAS 2:1, RT 1 h; EMSA: 50 uM ISD45, pcGAS at DNA:protein 1:1 to 1:32, RT 1 h, 1% agarose in 40 mM Tris-HCl pH 9.2; recombinant protein; protein details: N-term His6-SUMO-FLAG, C-term HA. Background: A gel shift assay detects complexes by their altered migration in electrophoresis.

The values below come from PMC10521975, “Species-specific cleavage of cGAS by picornavirus protease 3C disrupts mitochondria DNA-mediated immune sensing”.

Construct, isoform or probe ends are uncertain for at least one entry. The comparison behind a weaker result is the experiment's own reference, which may not be listed here.

“TACAGATCTACTAGTGATCTATGACTGATCTGTACATGATCTACA (double strand) [ISD45]”: the binding result is recorded as “binds more weakly”.
